Experimental data from ChEMBL document CHEMBL1155806, “Inorganic polyhedral metallacarborane inhibitors of HIV protease: a new approach to overcoming antiviral resistance” (J Med Chem, 2008).

Biological target: Protease (Human immunodeficiency virus 1, UniProt Q9YQ12)
Experiment: Inhibition of wild-type HIV1 BH10 protease expressed in Escherichia coli by spectrophotometric assay
Procedure, shortened: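 Recombinant PR refolded from inclusion bodies and purified. 8-10 pmol enzyme in 1 mL 0.1 M sodium acetate pH 4.7, 0.3 M NaCl, 4 mM EDTA. Ki obtained by fitting the Williams–Morrison competitive inhibition equation.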

Row | Structure (SMILES) | Ki
1 | CC(C)(C)NC(=O)[C@@H]1C[C@@H]2CCCC[C@@H]2CN1C[C@@H](O)[C@H](Cc1ccccc1)NC(=O)[C@H](CC(N)=O)NC(=O)c1ccc2ccccc2n1 | 0.04 nM
2 | CC(C)(C)NC(=O)[C@@H]1CN(Cc2cccnc2)CCN1C[C@@H](O)C[C@@H](Cc1ccccc1)C(=O)N[C@H]1c2ccccc2C[C@H]1O | 0.12 nM
3 | Cc1cccc(C)c1OCC(=O)N[C@@H](Cc1ccccc1)[C@@H](O)C[C@H](Cc1ccccc1)NC(=O)[C@H](C(C)C)N1CCCNC1=O [LOPINAVIR] | 0.018 nM
